Results of unrelated studies side by side (data: NIAID ChemDB).

Shared fields: whole-cell or culture tests; organism: Staphylococcus aureus

Zone: diameter of growth inhibition. Rows are shuffled and stem from different studies. MIC50, MIC90 and the like: level of inhibition, or share of isolates inhibited. An empty or dashed field is not shown. a–b is a range or a potency band.

SMILES	strain or isolate	dose	method	endpoint	value
CCCC[C@H](CC(=O)NO)C(=O)N[C@@H](CC(C)C)C(=O)Nc1ccc2ccccc2c1	25 strains			MIC90	4 µg/mL
NCCCCCCNc1cc2c(cc1F)c(=O)c(C(=O)O)cn2-c1ccc(F)cc1F	ATCC 6538P			MIC	3.1 µg/mL
Cc1cn(-c2ccc(N3C[C@H](COc4ccon4)OC3=O)cc2F)cn1	004 (methicillin quinolone-resistant)			MIC	2 µg/mL
CCN(CC)CCN(C)c1cc2c(cc1F)c(=O)c(C(=O)O)cn2C1CC1	ATCC 6538P			MIC	>100 µg/mL
C[C@H]1COc2c(N3CCN(C)CC3)c(F)cc3c(=O)c(C(=O)O)cn1c23	46 isolates (methicillin-resistant)			MIC50	0.5 µg/mL
Cc1c(NCCO)c(F)cc2c(=O)c(C(=O)O)cn(-c3cc(N)c(F)cc3F)c12	27 isolates (methicillin-resistant)			MIC50	0.03 µg/mL
CN(C)CCCNc1cc2c(cc1F)c(=O)c(C(=O)O)cn2C1CC1	ATCC 5278 (methicillin-resistant)			MIC	>100 µg/mL
C[C@@H]1CN(c2c(F)c(N)c3c(=O)c(C(=O)O)cn(C4CC4)c3c2F)C[C@H](C)N1	Methicillin-resistant			MIC90	0.06–8 µg/mL
CNCCCN(C)c1cc2c(cc1F)c(=O)c(C(=O)O)cn2C1CC1	ATCC 5278 (methicillin-resistant)			MIC	3.12 µg/mL
CC[C@H]1OC(=O)[C@H](C)C(=O)[C@H](C)[C@@H](O[C@@H]2O[C@H](C)C[C@H](N(C)C)[C@H]2O)[C@@]2(C)C[C@@H](C)C(=NC(C)=O)[C@H](C)C(OC/C(=N\OCC#Cc3cccc(N)n3)CO2)[C@]1(C)O	25 strains			MIC90	16 µg/mL
CCCCCCCCCCCC[N+](C)(C)COCCC	ATCC33592			MBC	3.1 µM
O=C(CO)N[C@H]1CCN(c2ccc(N3C[C@H](COc4ccon4)OC3=O)cc2F)C1	004 (methicillin quinolone-resistant)			MIC	8 µg/mL
CCCCCCCCCCCC[N+](C)(C)COC(CC)CCCCC	ATCC 6538			MBC	25.5 µM
CC(C)(C)n1cc(C(=O)O)c(=O)c2cc(F)c(N3C[C@H]4C[C@@H]3CN4)nc21	61 strains (methicillin-susceptible)			MIC50	0.13 µg/mL
CC(C)NCCNc1cc2c(cc1F)c(=O)c(C(=O)O)cn2C1CC1	ATCC 5278 (methicillin-resistant)			MIC	100 µg/mL
CC[C@H]1OC(=O)[C@H](C)C(=O)[C@H](C)[C@@H](O[C@@H]2O[C@H](C)C[C@H](N(C)C)[C@H]2O)[C@@]2(C)C[C@@H](C)C(=NC(C)=O)[C@H](C)[C@@H](OC/C(=N\OCc3ccc(-n4cccn4)nc3)CO2)[C@]1(C)O	25 strains			MIC50	0.125 µg/mL
C[C@H]1NCc2cc(-c3ccc4c(=O)c(C(=O)O)cn(C5CC5)c4c3OC(F)F)ccc21	A15090 (methicillin-susceptible)			MBC	0.03 µg/mL
CCCCCCCCCCCC[N+](C)(C)COC(C)C	ATCC 6538			MBC	9.32 µM
Cc1c(NCCCO)c(F)cc2c(=O)c(C(=O)O)cn(-c3cc(N)c(F)cc3F)c12	27 isolates			MIC90	0.03 µg/mL
CN(C)CC(=O)Nc1cc(N(C)C)c2c(c1O)C(O)=C1C(=O)[C@]3(O)C(O)=C(C(N)=O)C(=O)[C@@H](N(C)C)[C@@H]3C[C@@H]1C2	Oxacillin-resistant			MIC90	0.03–1 µg/mL
CN(C)CC(C)(C)CNc1cc2c(cc1F)c(=O)c(C(=O)O)cn2C1CC1	ATCC 5278 (methicillin-resistant)			MIC	>100 µg/mL
CS(=O)(=O)NC1CCN(c2ccc(N3C[C@H](COc4ccon4)OC3=O)cc2F)CC1	078 (oxford)			MIC	8 µg/mL
COc1c(N2CCNC(C)C2)c(F)cc2c(=O)c(C(=O)O)cn(C3CC3)c12	30 strains (methicillin-resistant)			MIC50	0.1 µg/mL
COc1c(N2C[C@@H]3CCCN[C@@H]3C2)c(F)cc2c(=O)c(C(=O)O)cn(C3CC3)c12	296 isolates (methicillin-susceptible)			MIC90	0.1 µg/mL
CCCCCCCCCCCC[N+](C)(C)COCCC(C)C	ATCC 6538			MBC	7.14 µM
CC(C)(C)n1cc(C(=O)O)c(=O)c2cc(F)c(N3C[C@H]4C[C@@H]3CN4)nc21	30 strains (methicillin-susceptible)			MIC50	0.12 µg/mL
O=C1O[C@@H](COc2ccon2)CN1c1ccc(-n2ccnc2)c(F)c1	122 (novobiocin-resistant)			MIC	1 µg/mL
COC(=O)[C@H](C)NC(=O)[C@H](Cc1ccc(O)cc1)NC(=O)[C@@H]1CCCN1C(=O)[C@H](CC(C)C)NC(=O)CNC(=O)[C@@H]1CCCN1C(=O)[C@H](CC(=O)O)NC(C)(C)C		12.5 µg/mL		zone	9 mm
CC[C@H]1OC(=O)[C@H](C)C(=O)[C@H](C)[C@@H](O[C@@H]2O[C@H](C)C[C@H](N(C)C)[C@H]2O)[C@](C)(OC)C[C@@H](C)C(=O)[C@H](C)[C@H]2N(CCCCn3cnc(-c4cccnc4)c3)C(=O)O[C@]12C	25 strains			MIC50	0.125 µg/mL
CS(=O)(=O)N[C@@H]1CCN(c2ccc(N3C[C@H](COc4ccon4)OC3=O)cc2F)C1	122 (novobiocin-resistant)			MIC	1 µg/mL
CO/N=C1\CN(c2nc3c(cc2F)c(=O)c(C(=O)O)cn3C2CC2)CC1CN	9 isolates (methicillin-susceptible)			MIC50	0.063 µg/mL
CCCCCCCCCCCC[N+](C)(C)COCCCCCCCCCCC	ATCC33592			MBC	115 µM
C=CCCCCCC(CCCCBr)CCCC(=O)NCCC=C	Clinical	100 µg/disc	agar diffusion	zone	14 mm
O=C1O[C@@H](COc2ccon2)CN1c1ccc(N2CC[C@H](O)C2)c(F)c1	078 (oxford)			MIC	2 µg/mL
CCCCCCCCCCCC[N+](C)(C)COCC(C)CC	ATCC33592			MBC	8.57 µM
CCSCCNc1cc2c(cc1F)c(=O)c(C(=O)O)cn2C1CC1	ATCC 5278 (methicillin-resistant)			MIC	>100 µg/mL

A second listing of 3 rows from above:

{"SMILES": "CS(=O)(=O)NC1CCN(c2ccc(N3C[C@H](COc4ccon4)OC3=O)cc2F)CC1", "strain or isolate": "078 (oxford)", "endpoint": "MIC", "value": "8 µg/mL"}
{"SMILES": "COc1c(N2C[C@@H]3CCCN[C@@H]3C2)c(F)cc2c(=O)c(C(=O)O)cn(C3CC3)c12", "strain or isolate": "296 isolates (methicillin-susceptible)", "endpoint": "MIC90", "value": "0.1 µg/mL"}
{"SMILES": "C[C@@H]1CN(c2c(F)c(N)c3c(=O)c(C(=O)O)cn(C4CC4)c3c2F)C[C@H](C)N1", "strain or isolate": "Methicillin-resistant", "endpoint": "MIC90", "value": "0.06–8 µg/mL"}